The nature of the data set: Demonstration of substantivity: UV absorber taken up by human hair from aqueous solution. Conditions: at pH 9.5, 10 mmol/l aqueous solution, 15 minutes.

The structures appear in SMILES notation.

Consider `CCCCCCCC[N+](CC)(CC)CCCNC(=O)CCc1cc(-n2nc3ccccc3n2)c(O)c(C(C)(C)C)c1.[Br-]` [compound of formula (108)], for which the “mg of UV absorber per g of hair” value (damaged (bleached) human hair) was 25 (at pH 9.5; damaged hair*) mg of UV absorber per g of hair and the “mg of UV absorber per g of hair” value (undamaged mid-blonde human hair) is on record as 9 (at pH 9.5; undamaged hair*) mg of UV absorber per g of hair.

The record behind these values is patent US7129198B1, “Use of benzotriazole UV absorbers” (Ciba Specialty Chemicals Corporation, priority 1999, dated 2006).
